Anti-infective test results gathered from many reports (values: NIAID ChemDB through PubChem).

Shared fields: host cell toxicity; cell line: HepG2; read by: MTS; endpoint: CC50

CCn: concentration that lowers growth or viability of the cells by n%.

SMILES,value
CCCCCCCCCCCC(=O)Nc1nc(N)nc2c1ncn2[C@H]1CO[C@@H](COP(=O)(N[C@@H](C)C(=O)OCC)Oc2ccccc2)O1,71 µM
CC[C@H]1OC(=O)[C@H](C)[C@@H](O[C@H]2C[C@@](C)(OC)[C@@H](O)[C@H](C)O2)[C@H](C)[C@@H](O[C@@H]2O[C@H](C)C[C@H](N(C)C)[C@H]2OCCCNC(=O)CNc2ccnc3cc(Cl)ccc23)[C@](C)(O)C[C@@H](C)CN(C)[C@H](C)[C@@H](O)[C@]1(C)O,28 µM
COc1cccc2ccc(N3CCC(c4nc(-c5ccc(N6CCCC6)nc5)no4)CC3)nc12,>100 µM
CC[C@H]1OC(=O)[C@H](C)[C@@H](O)[C@H](C)[C@@H](O[C@@H]2O[C@H](C)C[C@H](N(C)C)[C@H]2OCCCNCc2ccnc3ccccc23)[C@](C)(O)C[C@@H](C)CN(C)[C@H](C)[C@@H](O)[C@]1(C)O,>100 µM
CCCCCC(=O)Nc1nc(N)nc2c1ncn2[C@H]1CO[C@@H](COP(=O)(N[C@@H](C)C(=O)OCC)Oc2ccccc2)O1,>100 µM
COc1cccc2ccc(N3CCC(c4nc(-c5ccc(C(F)(F)F)cc5)no4)CC3)nc12,7.8–15.6 µM
CC[C@H]1OC(=O)[C@H](C)[C@@H](O)[C@H](C)[C@@H](O[C@@H]2O[C@H](C)C[C@H](N(C)C)[C@H]2OCCCNC(=O)CCCNc2ccnc3cc(Cl)ccc23)[C@](C)(O)C[C@@H](C)CN(C)[C@H](C)[C@@H](O)[C@]1(C)O,75 µM
CCCCCCCC(=O)Nc1nc(N)nc2c1ncn2[C@H]1CO[C@@H](COP(=O)(N[C@@H](C)C(=O)OCC)Oc2ccccc2)O1,9.5 µM
CC[C@H]1OC(=O)[C@H](C)[C@@H](O[C@H]2C[C@@](C)(OC)[C@@H](O)[C@H](C)O2)[C@H](C)[C@@H](O[C@@H]2O[C@H](C)C[C@H](N(C)CCCNC(=O)CCCNc3ccnc4cc(Cl)ccc34)[C@H]2O)[C@](C)(O)C[C@@H](C)CN(C)[C@H](C)[C@@H](O)[C@]1(C)O,>50 µM
COc1cccc2ccc(N3CCC(c4nc(-c5ccc(O)cc5)no4)CC3)nc12,>100 µM
CC[C@H]1OC(=O)[C@H](C)[C@@H](O[C@H]2C[C@@](C)(OC)[C@@H](O)[C@H](C)O2)[C@H](C)[C@@H](O[C@@H]2O[C@H](C)C[C@H](N(C)C)[C@H]2OCCCNCc2ccnc3ccccc23)[C@](C)(O)C[C@@H](C)CN(C)[C@H](C)[C@@H](O)[C@]1(C)O,45 µM
COc1cccc2ccc(N3CCC(c4nc(-c5ccc(N6CCCCC6)nc5)no4)CC3)nc12,>100 µM
CCOC(=O)[C@H](C)NP(=O)(OC[C@@H]1OC[C@H](n2cnc3c(NC(C)=O)nc(N)nc32)O1)Oc1ccccc1,>100 µM
CC[C@H]1OC(=O)[C@H](C)[C@@H](O[C@H]2C[C@@](C)(OC)[C@@H](O)[C@H](C)O2)[C@H](C)[C@@H](O[C@@H]2O[C@H](C)C[C@H](N(C)CCCNc3ccnc4cc(Cl)ccc34)[C@H]2O)[C@](C)(O)C[C@@H](C)CN(C)[C@H](C)[C@@H](O)[C@]1(C)O,3 µM
CC[C@H]1OC(=O)[C@H](C)[C@@H](O[C@H]2C[C@@](C)(OC)[C@@H](O)[C@H](C)O2)[C@H](C)[C@@H](O[C@@H]2O[C@H](C)C[C@H](N(C)C)[C@H]2OCCCNCc2ccc3ccccc3n2)[C@](C)(O)C[C@@H](C)CN(C)[C@H](C)[C@@H](O)[C@]1(C)O,30 µM
COc1cccc2ccc(N3CCC(c4nc(-c5cccc(C(F)(F)F)c5)no4)CC3)nc12,>100 µM

Rows are shuffled and stem from different studies. Two numbers with a dash give a range or band.